Article PMC4929710, “Specificity and mechanism of action of alpha-helical membrane-active peptides interacting with model and biological membranes by single-molecule force spectroscopy” (Scientific Reports, 2016)

Experiments:
Assay in all cases: Tryptophan fluorescence with LUVs
Format in all cases: binding
PC/Chol (8:1 w/w) LUVs = settings: for PC/Chol Wavelength (emission maximum): HEPES pH 7.4, 25 °C, 10 min; for PC/Chol Intensity: tryptophan fluorescence intensity, 25 °C
Source text: (§1) In order to investigate the interaction between peptides and difference types of cell membranes, three different LUVs were used to mimic a prokaryotic cell membrane (PC/PG), a normal eukaryotic cell membrane (PC/Chol), and a cancer cell membrane (PC/SM/PE/PS/Chol). Tryptophan residue in the peptide sequence was used as a fluorescent probe to examine the interaction of peptides with model membranes. […] For example, in the PC/PG (7:3 w/w) anionic prokaryotic mimicking model membrane, peptides V13L and A12L/A20L had the strongest hydrophobicity with blue shift values of approximately 37 nm and 38 nm, respectively. Conversely, peptide V13E with a negative charge of glutamic acid residue, and peptide L6A/L17A with the lowest hydrophobicity had blue shift values of approximately 18 nm and 17 nm, respectively. […] In addition, within PC/SM/PE/PS/Chol (4.35:4.35:1:0.3:1 w/w) as a cancer-mimicking model membrane, the same results could be obtained in that peptide hydrophobicity correlates with anticancer activity and the blue shift values of peptides.
(§2) In accordance with previously described methods, LUVs were prepared with PC/PG (7:3 w/w), PC/Chol (8:1 w/w), and PC/SM/PE/PS/Chol (4.35:4.35:1:0.3:1 w/w) to mimic prokaryotic cell, […], membranes, respectively. Lipids using the freeze-thaw method as described previously, followed by extrusion through […] double-stacked nuclepore filters using an Mini-Extruder (Avanti Polar Lipids, Inc.)[11][27].
(§3) Three kinds of LUVs were prepared and cultured in HEPES buffer (pH 7.4, 10 mM HEPES, 150 mM NaCl) and the molar concentration was adjusted to 100 μM. A total of 14 μL of 100 μM MAPs was mixed with 686 μL of 100 μM liposomes at 25 °C for 10 min. A Shimadzu RF-5301PC, (excitation wavelength of […], emission wavelength of 300–450 nm) was used to measure the tryptophan fluorescence. Potassium iodide (KI) as a quencher was added to the previous reaction system for a final concentration of 0.02–0.08 M, respectively. The experimental data were plotted according to the Stern–Volmer equation F0/F = 1 + Ksv[Q], where F0 and F are the fluorescence intensity in the absence or presence of a quencher at concentration [Q], respectively, and Ksv is the Stern–Volmer quenching constant.

PC/PG (7:3 w/w) LUVs = settings: HEPES pH 7.4, 25 °C, 10 min
Source text: as §1, §2, §3

[1] = tested on: PC/SM/PE/PS/Chol (4.35:4.35:1:0.3:1 w/w) LUVs; settings: for PC/SM/PE/PS/Chol Wavelength (emission maximum): PC/SM/PE/PS/Chol (4.35:4.35:1:0.3:1 w/w) LUVs, HEPES pH 7.4, 25 °C, 10 min; for PC/SM/PE/PS/Chol Intensity: tryptophan fluorescence intensity, PC/SM/PE/PS/Chol LUVs, 25 °C
Source text: as §1, §2, §3

## Ac-KWKSFAKTFKSAKKTVAHTALKAISS-NH2 [L6A/L17A]
PC/Chol (8:1 w/w) LUVs
  PC/Chol Wavelength (emission maximum): 350 nm
  PC/Chol Intensity: 71.60
PC/PG (7:3 w/w) LUVs
  PC/PG Wavelength (emission maximum): 334 nm
[1]
  PC/SM/PE/PS/Chol Wavelength (emission maximum): 329 nm
  PC/SM/PE/PS/Chol Intensity: 213.77

## Ac-KWKSFAKTFKSAKKTVLHTALKAISS-NH2 [Peptide L6A]
PC/Chol (8:1 w/w) LUVs
  PC/Chol Wavelength (emission maximum): 348 nm
  PC/Chol Intensity: 64.43
PC/PG (7:3 w/w) LUVs
  PC/PG Wavelength (emission maximum): 330 nm
[1]
  PC/SM/PE/PS/Chol Wavelength (emission maximum): 326 nm
  PC/SM/PE/PS/Chol Intensity: 295.77

## Ac-KWKSFLKTFKSAAKTVLHTALKAISS-NH2 [Peptide V13A]
PC/Chol (8:1 w/w) LUVs
  PC/Chol Wavelength (emission maximum): 343 nm
  PC/Chol Intensity: 173.85
PC/PG (7:3 w/w) LUVs
  PC/PG Wavelength (emission maximum): 313 nm
[1]
  PC/SM/PE/PS/Chol Wavelength (emission maximum): 316 nm
  PC/SM/PE/PS/Chol Intensity: 368.92

## Ac-KWKSFLKTFKSAEKTVLHTALKAISS-NH2 [Peptide V13E]
PC/Chol (8:1 w/w) LUVs
  PC/Chol Wavelength (emission maximum): 348 nm
  PC/Chol Intensity: 136.25
PC/PG (7:3 w/w) LUVs
  PC/PG Wavelength (emission maximum): 331 nm
[1]
  PC/SM/PE/PS/Chol Wavelength (emission maximum): 326 nm
  PC/SM/PE/PS/Chol Intensity: 260.90

## Ac-KWKSFLKTFKSALKTVLHTALKAISS-NH2 [Peptide V13L]
PC/Chol (8:1 w/w) LUVs
  PC/Chol Wavelength (emission maximum): 335 nm
  PC/Chol Intensity: 281.14
PC/PG (7:3 w/w) LUVs
  PC/PG Wavelength (emission maximum): 309 nm
[1]
  PC/SM/PE/PS/Chol Wavelength (emission maximum): 316 nm
  PC/SM/PE/PS/Chol Intensity: 380.24

## Ac-KWKSFLKTFKSASKTVLHTALKAISS-NH2 [Peptide V13S]
PC/Chol (8:1 w/w) LUVs
  PC/Chol Wavelength (emission maximum): 347 nm
  PC/Chol Intensity: 85.51
PC/PG (7:3 w/w) LUVs
  PC/PG Wavelength (emission maximum): 323 nm
[1]
  PC/SM/PE/PS/Chol Wavelength (emission maximum): 319 nm
  PC/SM/PE/PS/Chol Intensity: 342.76
